Target: E. coli DNA gyrase (Escherichia coli (strain K12), UniProt P0AES4+P0AES6)
Assay: Agarose gel-based DNA gyrase inhibition assay
Type: biochemical

By UniProt entry, the sequences of proteins in these tests, tags left out. Residues count along the entry.
UniProt P0AES4, 2-875 limits assumed: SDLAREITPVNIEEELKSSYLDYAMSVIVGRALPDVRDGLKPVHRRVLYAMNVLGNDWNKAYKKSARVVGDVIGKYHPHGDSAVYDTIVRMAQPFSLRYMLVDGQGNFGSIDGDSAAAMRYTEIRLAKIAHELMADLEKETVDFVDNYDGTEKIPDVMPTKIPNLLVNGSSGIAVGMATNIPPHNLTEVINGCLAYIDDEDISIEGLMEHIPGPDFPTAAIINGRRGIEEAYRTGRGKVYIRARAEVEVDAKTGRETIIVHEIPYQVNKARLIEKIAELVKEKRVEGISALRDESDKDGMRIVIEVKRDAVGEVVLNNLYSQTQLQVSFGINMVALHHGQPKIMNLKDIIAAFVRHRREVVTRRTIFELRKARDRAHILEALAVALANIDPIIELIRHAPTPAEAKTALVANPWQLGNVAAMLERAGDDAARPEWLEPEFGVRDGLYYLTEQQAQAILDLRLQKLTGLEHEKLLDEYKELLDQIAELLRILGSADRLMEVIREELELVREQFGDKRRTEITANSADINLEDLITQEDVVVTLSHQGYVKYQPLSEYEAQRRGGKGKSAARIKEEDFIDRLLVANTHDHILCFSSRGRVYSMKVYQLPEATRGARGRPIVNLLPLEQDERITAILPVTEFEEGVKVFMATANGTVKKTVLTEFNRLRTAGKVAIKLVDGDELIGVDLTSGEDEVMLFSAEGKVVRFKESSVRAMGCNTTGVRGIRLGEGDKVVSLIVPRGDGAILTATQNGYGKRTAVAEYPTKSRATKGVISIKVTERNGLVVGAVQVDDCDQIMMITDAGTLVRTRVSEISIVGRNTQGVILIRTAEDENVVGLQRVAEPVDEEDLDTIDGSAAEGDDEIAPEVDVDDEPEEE

For `N/N=C1\c2ccccc2C(=O)C1C(=O)C(c1ccccc1)c1ccccc1` (centres unmarked), the “inhibition of E. coli DNA gyrase activities” value (50 µM of compounds) was “inhibited” and the “inhibition of E. coli DNA gyrase activities” value (200 µM of compounds) was “completely inhibited”.

— patent US20230364057A1, “BACTERIAL DNA GYRASE INHIBITORS AND METHODS OF USE THEREOF” (THE FLORIDA INTERNATIONAL UNIVERSITY BOARD OF TRUSTEES, priority 2022, published 2023)
